The entries are a selection whose mix differs from that of the whole data set. Active and inactive are the calls of the source.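 How the source made its calls: active means every replicate shows inhibition above about 80%, whatever the replicate mean (limit read from the data); inconclusive means mean inhibition reaches the set limit but some replicate falls short; inactive means the rest.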

A word on the inhibition: it is the relative decrease from the control value, in per cent.

A short description of this experiment: growth inhibition of PfHsp90-expressing yeast, primary screen, antimalarial PfHsp90 inhibitor project, S. cerevisiae, BacTiter-Glo luminescence, single point, set 2 (AID 504621).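 Further: yeast relying on Plasmodium falciparum Hsp90 in place of its own; 0% = DMSO neutral controls and 100% = 20 µM radicicol positive controls.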 Particulars: BacTiter-Glo ATP, 48 h, at 9.4 µM, active compounds read high, yeast lacking PDR1 and PDR3 efflux regulators.
As to `Cc1cc(SC(NC(=O)c2ccccc2)C(Cl)(Cl)Cl)nc(C(C)C)n1` (centres undefined), the inhibition was inactive: 7.33%.

For `CCCCOc1ccc(C(=O)NCC2(N3CCCCC3)CCCCC2)cc1OC`, the inhibition is inactive: -4.72%.

For the molecule `CCOC(=O)Nc1ccc([As](=O)(O)O)c(O)c1`, the inhibition was inactive: -3.86%.

Take `CC1CCNP(=O)(N(CCCl)CCCl)O1` (centres undefined): the inhibition was inactive: -0.807%.

In the case of `O=P(Nc1ccccn1)(c1cccc2ccccc12)c1cccc2ccccc12`, the inhibition is inactive: 2.46%.

Take `Cc1cc(SC(NC=O)C(Cl)(Cl)Cl)ncn1` (centres undefined): the inhibition is inactive: -19.5%.

For `O=[N+]([O-])c1ccc(Nc2ccc(Oc3ccc([N+](=O)[O-])cc3[N+](=O)[O-])cc2)c([N+](=O)[O-])c1`, the inhibition was inactive: 6.23%.

For `CCOC(=O)Nc1cccc([As](=O)(O)O)c1`, the inhibition was inactive: -15.8%.

Regarding `O=C(Nc1ccncc1[N+](=O)[O-])c1ccc([N+](=O)[O-])cc1[N+](=O)[O-]`, the inhibition is inactive: -1.57%.

In the case of `O=C(COc1ccccc1)OC1CN2CCC1CC2` (centres undefined), the inhibition is inactive: -7.72%.

As to `COP1(=S)c2c(C)nn(CCC#N)c2N=C(c2ccc(F)cc2)N1C` (centres undefined), the inhibition is inactive: -29%.

For `CCC(C)N(CC(C)C)C(=S)SC(NC(C)=O)C(Cl)(Cl)Cl` (centres undefined), the inhibition was inactive: -127%.

Consider `O=C(OC1CN2CCC1CC2)c1cccc([N+](=O)[O-])c1` (centres undefined), for which the inhibition is inactive: -8.48%.

On to `CCOC(=O)c1ccc(NC(=O)C(C)(CCl)SC)cc1` (centres undefined), for which the inhibition is inactive: -24.5%.

On to `O=P1(N(CCCl)CCCl)OCCCN1CCCl` (centres undefined), for which the inhibition is inactive: -2.19%.

Take `O=P1(N(CCCl)CCCl)Nc2ccccc2N1`: the inhibition was inactive: 6.31%.

In the case of `COc1cc(I)ccc1[As](=O)(O)O`, the inhibition was inactive: 5.76%.

For `COc1ccc2nc(NP(=O)(c3ccccc3)c3ccccc3)sc2c1`, the inhibition is inactive: -11.1%.

For `Cc1c2c(nc3ccccc13)SC(C(Cl)Cl)C2` (centres undefined), the inhibition is inactive: -6.63%.

Take `Cc1cc(=O)[nH]c(N[N+](=O)[O-])n1`: the inhibition is inactive: 3.74%.

In the case of `O=C(OC1CN2CCC1CC2)C12CC3CC(CC(C3)C1)C2` (centres undefined), the inhibition is inactive: 14.9%.

For the molecule `O=[N+]([O-])c1cc(Oc2ccc([N+](=O)[O-])cc2C(F)(F)F)cc([N+](=O)[O-])c1`, the inhibition is inactive: -72.3%.

As for `COc1ccc(N/C(=N/P(=O)(N2CCOCC2)N2CCOCC2)N2CCOCC2)cc1`, the inhibition was inactive: -23%.

In the case of `Cc1ccc(OP(=O)(Nc2ccc([N+](=O)[O-])cn2)Oc2ccc(C)cc2)cc1`, the inhibition was inactive: 7.12%.

As to `Cc1ccc2nc3c(c(C)c2c1)CC(C(Cl)Cl)S3` (centres undefined), the inhibition was inactive: -21.6%.

On to `COc1cc(C(=O)NCC2(N3CCOCC3)CCCCC2)ccc1OCC(C)C`, for which the inhibition was inactive: 7.27%.

In the case of `O=[As](O)(c1ccc(O)cc1)c1ccccc1O`, the inhibition was inactive: 11%.

With `C[As](=O)(O)c1cccc(C(=O)O)c1`, the inhibition is inactive: 13.9%.

On to `O=[N+]([O-])c1cc([N+](=O)[O-])c(-c2ccn[nH]2)s1`, for which the inhibition was inactive: -6.65%.

Take `CC(C)NC(=O)NP(=O)(Oc1ccccc1)Oc1ccccc1`: the inhibition was inactive: 16.1%.

On to `O=C(OC1CN2CCC1CC2)c1cccc2[nH]cnc12` (centres undefined), for which the inhibition was inactive: -2.62%.

Take `CCN(CC)C(=S)SC(NC=O)C(Cl)(Cl)Cl` (centres undefined): the inhibition is inactive: -12.6%.

For the molecule `COC(=O)C1(C)COP(=O)(N2CCCCCC2)OC1` (centres undefined), the inhibition is inactive: -2.91%.

With `CC(C)c1ccc(OP(=O)(Nc2ccccn2)Oc2ccccc2F)cc1` (centres undefined), the inhibition was inactive: 12.2%.

For the molecule `Nc1ccccc1[As](=O)(O)c1ccccc1`, the inhibition was inactive: -17.9%.

Turning to `O=C(O)COc1ccc([As](=O)(O)O)cc1[N+](=O)[O-]`, the inhibition is inactive: -15.8%.

Take `O=P(Nc1nccs1)(Oc1ccccc1)Oc1ccccc1`: the inhibition is inactive: 7.6%.

Regarding `O=P(Nc1nccs1)(c1ccccc1)c1nc2ccccc2s1` (centres undefined), the inhibition is inactive: 7.16%.

On to `CCOP1(=S)c2c(C)nn(CCC#N)c2N=C(c2ccccc2F)N1C` (centres undefined), for which the inhibition was inactive: -1.94%.

In the case of `CS(=O)(=O)c1cc([N+](=O)[O-])c2no[n+]([O-])c2c1`, the inhibition is inactive: 4.42%.

As for `CCOP1(=S)c2c(C)nn(CCC#N)c2N=C(c2ccc(F)cc2)N1C` (centres undefined), the inhibition was inactive: -0.687%.

Turning to `CN(C(=O)Cc1ccccc1)[C@@H]1CC[C@]2(CCCO2)C[C@H]1N1CCCC1`, the inhibition is inactive: -5.44%.

For the molecule `N#CCCN(C(=O)COC(=O)C(O)(c1ccccc1)c1ccccc1)c1ccc(F)cc1`, the inhibition was inactive: 3.26%.

On to `CN(C(=O)Cc1ccc(Cl)c(Cl)c1)[C@H]1CC[C@@]2(CCCO2)C[C@@H]1N1CCCC1`, for which the inhibition was inactive: -1.35%.

In the case of `CN(C)C(=O)c1cc([N+](=O)[O-])cc2c1-c1c(cc([N+](=O)[O-])cc1[N+](=O)[O-])C2=O`, the inhibition was inactive: -9.11%.

Turning to `O=[As](O)(c1cccc(O)c1)c1cccc(O)c1`, the inhibition is inactive: 0.523%.

`O=C(OC1CN2CCC1CC2)c1ccc(Cl)cc1` (centres undefined): the inhibition is inactive: 8.29%.

Regarding `CS(=O)(=O)c1ccc(Cl)c(NC(=O)COC(=O)C(O)(c2ccccc2)c2ccccc2)c1`, the inhibition was inactive: 21.4%.

Turning to `O=[As](O)(O)c1cccnc1`, the inhibition was inactive: 7.76%.

With `COc1cc(C(=O)NCC2(N3CCOCC3)CCCCC2)cc(Cl)c1OC(C)C`, the inhibition was inactive: 10.1%.

Turning to `CCOP(=O)(Nc1cccc2ccccc12)OCC`, the inhibition is inactive: -0.385%.

In the case of `COc1cc(C2NCCC3(OCCO3)C2(C)C)cc(OC)c1OC` (centres undefined), the inhibition was inactive: -20.5%.

As to `Nc1cccc2c([As](=O)(O)O)cccc12`, the inhibition is inactive: -15.6%.

For `Cc1ccc(NCCc2c([N+](=O)[O-])cc([N+](=O)[O-])cc2[N+](=O)[O-])cc1`, the inhibition is inactive: -12.5%.

Regarding `CCCOP(=S)(Nc1nc(N)cc(=O)[nH]1)OCCC`, the inhibition was inactive: -8.2%.

With `CC(C)(C)C(=O)NC(Sc1ncccn1)C(Cl)(Cl)Cl` (centres undefined), the inhibition is inactive: -2.37%.

For the molecule `CCOP(=O)(NC(=NC(C)c1ccccc1)NC(C)c1ccccc1)OCC` (centres undefined), the inhibition is inactive: 4.14%.

For the molecule `CCC1=CC2Cc3nc4ccc(Cl)cc4c(N)c3C(C1)C2` (centres undefined), the inhibition is inactive: 0.899%.

For `CCOP(=O)(Nc1ccc(C)cn1)OCC`, the inhibition is inactive: -18.1%.

Regarding `CC(C)/C=N\N=C(\N)N[N+](=O)[O-]`, the inhibition is inactive: -34.2%.

As for `CN(C(=O)Cc1ccc(Cl)c(Cl)c1)[C@@H]1CCCC[C@H]1N1CCCC1`, the inhibition is inactive: 11.3%.

On to `CC1(CBr)Cn2c(nc3ccccc3c2=O)S1` (centres undefined), for which the inhibition is inactive: 0.3%.

For the molecule `COc1ccccc1CNC(=O)COC(=O)C(O)(c1ccccc1)c1ccccc1`, the inhibition is inactive: 7.61%.

Take `CN(C)C1(CNC(=O)c2ccc(S(C)(=O)=O)cc2)CCCCC1`: the inhibition was inactive: 7.82%.

As to `CCCC1OP(=O)(Nc2ccccc2)OCC1CC` (centres undefined), the inhibition was inactive: 16.7%.

As to `O=C(/C=C/c1ccccc1)OC1CN2CCC1CC2` (centres undefined), the inhibition is inactive: 7.57%.

`CC1CCC(C(C)C)C(OP(=O)(Nc2ccccn2)c2ccccc2)C1` (centres undefined): the inhibition was inactive: 5.77%.

In the case of `Cc1ccc(C(=O)OC2CN3CCC2CC3)cc1` (centres undefined), the inhibition is inactive: 5.47%.

Consider `Cc1nn(-c2ccccc2)c2c1P(=O)(N1CCOCC1)N(C)C(c1ccccc1)=N2` (centres undefined), for which the inhibition was inactive: 10.6%.

On to `Nc1cccc([As](=O)(O)c2ccccc2)c1`, for which the inhibition is inactive: -64.9%.

Take `O=[As](O)(c1cccs1)c1cccs1`: the inhibition was inactive: 1.22%.

On to `Cc1ccc(OCC(=O)OC2CN3CCC2CC3)cc1` (centres undefined), for which the inhibition was inactive: -3.23%.

As to `O=P1(Nc2ccc(Br)cn2)COc2ccccc2OC1`, the inhibition is inactive: 31.5%.

Consider `NS(=O)(=O)c1cccc(NC(=O)COC(=O)C(O)(c2ccccc2)c2ccccc2)c1`, for which the inhibition was inactive: -4.96%.

With `C[C@H]1OP(=O)(Oc2ccccc2)[C@H](O)[C@H](O)[C@H]1N=[N+]=[N-]` (some centres undefined), the inhibition was inactive: 8.13%.

Turning to `O=P(Nc1nc2ccccc2s1)(c1ccccc1)c1ccccc1`, the inhibition was inactive: 25.9%.

For the molecule `O=P(Nc1ccccn1)(c1ccc(Br)cc1)c1ccc(Br)cc1`, the inhibition is inactive: -8.11%.

As for `CN(C)C1(CNC(=O)c2ccc(Cl)c(S(N)(=O)=O)c2)CCCCC1`, the inhibition was inactive: 2.08%.

In the case of `COc1ccc(N)c([N+](=O)[O-])c1[N+](=O)[O-]`, the inhibition is inactive: -2.91%.

Regarding `C(Cc1nn[nH]n1)Cc1nn[nH]n1`, the inhibition is inactive: 17.8%.

For `Nc1ccc([As](=O)(O)c2ccc([N+](=O)[O-])cc2)cc1`, the inhibition was inactive: 17.8%.

On to `O=[As](O)(c1ccccc1)c1ccc(O)cc1`, for which the inhibition is inactive: 7.83%.

Regarding `O=[N+]([O-])c1ccc(O)c(/C=N/Nc2ccc([N+](=O)[O-])cc2[N+](=O)[O-])c1`, the inhibition is inactive: -15.8%.

In the case of `O=[N+]([O-])c1ncn(CCn2cnc([N+](=O)[O-])n2)n1`, the inhibition is inactive: 2.08%.

For `CC(=O)NC(SC(=S)N(C)C)C(Cl)(Cl)Cl` (centres undefined), the inhibition was inactive: -33.6%.

Consider `c1nnnn1CCn1cnnn1`, for which the inhibition was inactive: -0.142%.

For `CC(C)C(=O)NC(Sc1ccccc1)C(Cl)(Cl)Cl` (centres undefined), the inhibition is inactive: 8.13%.

For `O=P(Nc1nccs1)(c1ccccc1)c1ccccc1`, the inhibition is inactive: 7.67%.

In the case of `CC(C)(C)C(=O)NC(Sc1ccccc1)C(Cl)(Cl)Cl` (centres undefined), the inhibition is inactive: -16.5%.

Consider `CCOc1ccc(C2=NCC(CBr)S2)cc1` (centres undefined), for which the inhibition was inactive: 18.3%.

On to `CC(=O)Nc1ccc(Oc2c([N+](=O)[O-])cc([N+](=O)[O-])cc2[N+](=O)[O-])cc1`, for which the inhibition was inactive: 13.1%.

For `CC(=O)Nc1ccc([As](=O)(O)O)c(O)c1`, the inhibition is inactive: -5.63%.

Take `C[C@H]1OP(=O)(Oc2ccccc2)C[C@@H]2O[C@@H]21` (some centres undefined): the inhibition was inactive: 6.61%.

On to `C[C@@H]1C=CCP(=O)(Oc2ccccc2)O1` (some centres undefined), for which the inhibition is inactive: -2.4%.

Take `Cc1ccccc1CN(C)C(=O)COC(=O)C(O)(c1ccccc1)c1ccccc1`: the inhibition was inactive: -3.41%.

As for `COC(=O)C1(C)COP(=O)(NCc2ccccc2)OC1` (centres undefined), the inhibition is inactive: 31.6%.

Take `CC(=O)c1ccc(N2CC2c2ccncc2)cc1` (centres undefined): the inhibition was inactive: -28.7%.

Take `N#C/C(=C\c1ccc(N(CCBr)CCBr)cc1)C(N)=O`: the inhibition was inactive: -10.1%.

On to `O=P1(N(CCCl)CCCl)OCCC2CCCCN21` (centres undefined), for which the inhibition is inactive: 12.6%.
